Experimental data: patent US20240122867A1, “CORONAL PROTEIN-COATED NANOPARTICLES AND USES THEREOF” (UNIVERSITY OF CENTRAL FLORIDA RESEARCH FOUNDATION, INC., priority 2021, published 2024)

System: coronal proteins on NPs
Set-up: species or system mouse
Details: for V5 Sera_Nanoparticles Quantitative Value (Normalized Total Spectra): HBPE-NPs incubated 1 h with IAV day 5 (V5) mouse sera, 20:1 NP:sera, centrifuged and washed; for V5 Sera Alone (Control) Quantitative Value (Normalized Total Spectra): IAV day 5 (V5) mouse sera alone, no NPs (sera-only control)

Molecule	V5 Sera_Nanoparticles Quantitative Value (Normalized Total Spectra)	V5 Sera Alone (Control) Quantitative Value (Normalized Total Spectra)
Histidine-rich glycoprotein (protein, UniProt Q9ESB3 19-525, looked up) Histidine-rich glycoprotein: LSPTNCDASEPLAEKVLDLINKGRRSGYVFELLRVSDAHLDRAGTATVYYLALDVIESDCWVLSTKAQDDCLPSRWQSEIVIGQCKVIATRYSNESQDLSVNGYNCTTSSVSSALRNTKDSPVLLDFFEDSELYRKQARKALDKYKTDNGDFASFRVERAERVIRARGGERTNYYVEFSMRNCSTQHFPRSPLVFGFCRALLSYSIETSDLETPDSIDINCEVFNIEDHKDTSDMKPHWGHERPLCDKHLCKLSGSRDHHHTHKTDKLGCPPPPEGKDNSDRPRLQEGALPQLPPGYPPHSGANRTHRPSYNHSCNEHPCHGHRPHGHHPHSHHPPGHHSHGHHPHGHHPHSHHSHGHHPPGHHPHGHHPHGHHPHGHHPHGHHPHGHDFLDYGPCDPPSNSQELKGQYHRGYGPPHGHSRKRGPGKGLFPFHHQQIGYVYRLPPLNIGEVLTLPEANFPSFSLPNCNRSLQPEIQPFPQTASRSCPGKFESEFPQISKFFGYTPPK	18.495	14.804
Pregnancy zone protein (protein, UniProt Q61838 25-1495, looked up) Pregnancy zone protein: ATAKPQYVVLVPSEVYSGVPEKACVSLNHVNETVMLSLTLEYAMQQTKLLTDQAVDKDSFYCSPFTISGSPLPYTFITVEIKGPTQRFIKKKSIQIIKAESPVFVQTDKPIYKPGQIVKFRVVSVDISFRPLNETFPVVYIETPKRNRIFQWQNIHLAGGLHQLSFPLSVEPALGIYKVVVQKDSGKKIEHSFEVKEYVLPKFEVIIKMQKTMAFLEEELPITACGVYTYGKPVPGLVTLRVCRKYSRYRSTCHNQNSMSICEEFSQQADDKGCFRQVVKTKVFQLRQKGHDMKIEVEAKIKEEGTGIELTGIGSCEIANALSKLKFTKVNTNYRPGLPFSGQVLLVDEKGKPIPNKNITSVVSPLGYLSIFTTDEHGLANISIDTSNFTAPFLRVVVTYKQNHVCYDNWWLDEFHTQADHSATLVFSPSQSYIQLELVFGTLACGQTQEIRIHYLLNEDIMKNEKDLTFYYLIKARGSIFNLGSHVLSLEQGNMKGVFSLPIQVEPGMAPEAQLLIYAILPNEELVADAQNFEIEKCFANKVNLSFPSAQSLPASDTHLKVKAAPLSLCALTAVDQSVLLLKPEAKLSPQSIYNLLPGKTVQGAFFGVPVYKDHENCISGEDITHNGIVYTPKHSLGDNDAHSIFQSVGINIFTNSKIHKPRFCQEFQHYPAMGGVAPQALAVAASGPGSSFRAMGVPMMGLDYSDEINQVVEVRETVRKYFPETWIWDLVPLDVSGDGELAVKVPDTITEWKASAFCLSGTTGLGLSSTISLQAFQPFFLELTLPYSVVRGEAFTLKATVLNYMSHCIQIRVDLEISPDFLAVPVGGHENSHCICGNERKTVSWAVTPKSLGEVNFTATAEALQSPELCGNKLTEVPALVHKDTVVKSVIVEPEGIEKEQTYNTLLCPQDTELQDNWSLELPPNVVEGSARATHSVLGDILGSAMQNLQNLLQMPYGCGEQNMVLFVPNIYVLNYLNETQQLTEAIKSKAINYLISGYQRQLNYQHSDGSYSTFGNHGGGNTPGNTWLTAFVLKAFAQAQSHIFIEKTHITNAFNWLSMKQKENGCFQQSGYLLNNAMKGGVDDEVTLSAYITIALLEMPLPVTHSAVRNALFCLETAWASISQSQESHVYTKALLAYAFALAGNKAKRSELLESLNKDAVKEEDSLHWQRPGDVQKVKALSFYQPRAPSAEVEMTAYVLLAYLTSESSRPTRDLSSSDLSTASKIVKWISKQQNSHGGFSSTQDTVVALQALSKYGAATFTRSQKEVLVTIESSGTFSKTFHVNSGNRLLLQEVRLPDLPGNYVTKGSGSGCVYLQTSLKYNILPVADGKAPFALQVNTLPLNFDKAGDHRTFQIRINVSYTGERPSSNMVIVDVKMVSGFIPMKPSVKKLQDQPNIQRTEVNTNHVLIYIEKLTNQTLGFSFAVEQDIPVKNLKPAPIKVYDYYETDEFTVEEYSAPFSDGSEQGNA	144.69	112.88
